## PSTVd loop 6 mutant pool in Nicotiana benthamiana

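Three N. benthamiana plants were inoculated with the whole mutant pool. Progeny were sequenced from the inoculated region (day 5), the margin of the inoculated leaf (day 10) and systemic leaves (day 12).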

Region: loop 6 of PSTVd (intermediate strain), upper and lower strand joined, each 5' to 3', the first 5 letters being the upper strand, closing pairs included. Wild type: UGACCGCGAG. Varied positions (N): UNNNCGNNNG.

Numbers give reads per thousand; 0 = not seen among the reads, higher = more abundant.
Each value is the mean of three plants.
"Pool" is the share in the plasmid pool used as inoculum, on the same scale.
The inoculated region was read from the minus strand, the other sites from the plus strand.
Wild type was 20.7 per thousand in the pool and the most common sequence in every sample (inoculated region 195, 198, 203; leaf margin 629, 591, 734; systemic leaves 942, 870, 868).
The authors trace changes outside the varied positions to PCR and sequencing errors or to mutation in the plant; presence does not show that a variant is infectious alone.
Samples held 36,220 to 57,551 reads, so the smallest values rest on one or two reads.

With UAAACGUGCG (pool 0.144) the assay gave inoculated region 0.559; leaf margin 0.0668; systemic leaves 0.0195.
With UAAUCGACGG (pool 0.327) the assay gave inoculated region 0.0721; leaf margin 0; systemic leaves 0.
With UACACGGGGG (pool 0.118) the assay gave inoculated region 0.0653; leaf margin 0; systemic leaves 0.
With UACGCGCAUG (pool 0.118) the assay gave inoculated region 0.0781; leaf margin 0; systemic leaves 0.
With UACUCGGCGG (pool 0.248) the assay gave inoculated region 0.0829; leaf margin 0; systemic leaves 0.
With UACUCGGUAG (pool 0.222) the assay gave inoculated region 0.0769; leaf margin 0.00773; systemic leaves 0.
With UAGCCGGUGG (pool 0.248) the assay gave inoculated region 0.0953; leaf margin 0.833; systemic leaves 0.
With UAGGCGAUUG (pool 0.379) the assay gave inoculated region 0.119; leaf margin 0.00773; systemic leaves 0.
With UCAACGUACG (pool 0.235) the assay gave inoculated region 0.631; leaf margin 0.0584; systemic leaves 0.
With UCAGCGGUGG (pool 0.288) the assay gave inoculated region 0.0785; leaf margin 0.0169; systemic leaves 0.
With UCCACGAUGG (pool 0.275) the assay gave inoculated region 0.102; leaf margin 0; systemic leaves 0.
With UCCACGGCUG (pool 0.327) the assay gave inoculated region 0.0544; leaf margin 0.00920; systemic leaves 0.
With UCCCCGAAGG (pool 0.157) the assay gave inoculated region 0.0829; leaf margin 0; systemic leaves 0.
With UCCUCGUGAG (pool 0.301) the assay gave inoculated region 0.0837; leaf margin 0.00773; systemic leaves 0.
With UCGGCGCAGG (pool 0.288) the assay gave inoculated region 0.113; leaf margin 0.0841; systemic leaves 0.00684.
With UCGGCGUACG (pool 0.458) the assay gave inoculated region 0.0826; leaf margin 0; systemic leaves 0.
With UCUUCGACGG (pool 0.248) the assay gave inoculated region 0.0420; leaf margin 0.00773; systemic leaves 0.
With UGAACGACUG (pool 0.235) the assay gave inoculated region 0.132; leaf margin 0.0169; systemic leaves 0.
With UGACAGAACG (pool 0.0261) the assay gave inoculated region 0; leaf margin 0; systemic leaves 0.
With UGAGCGUUUG (pool 0.471) the assay gave inoculated region 0.0895; leaf margin 0.00920; systemic leaves 0.
With UGAUCGCCAG (pool 0.144) the assay gave inoculated region 0.0480; leaf margin 0.0247; systemic leaves 0.0195.
With UGCUCGCAGG (pool 0.196) the assay gave inoculated region 0.102; leaf margin 0.0184; systemic leaves 0.
With UGGGCGGAAG (pool 0.0784) the assay gave inoculated region 0.0357; leaf margin 0; systemic leaves 0.
With UGGGCGGCAG (pool 0.144) the assay gave inoculated region 0.0596; leaf margin 0; systemic leaves 0.
With UGUACGCUGG (pool 0.301) the assay gave inoculated region 0.0717; leaf margin 0.0155; systemic leaves 0.
With UGUACGUGAG (pool 0.170) the assay gave inoculated region 0.648; leaf margin 0.0823; systemic leaves 0.
With UGUCCGCCUG (pool 0.327) the assay gave inoculated region 0.106; leaf margin 0.00920; systemic leaves 0.
With UGUCCGGUAG (pool 0.261) the assay gave inoculated region 0.0657; leaf margin 0.00920; systemic leaves 0.
With UGUGCGGUGG (pool 0.288) the assay gave inoculated region 0.108; leaf margin 0.0169; systemic leaves 0.
With UUACCGCUUG (pool 0.144) the assay gave inoculated region 0.137; leaf margin 0.0184; systemic leaves 0.
With UUAGCGAAAG (pool 0.118) the assay gave inoculated region 0.143; leaf margin 0.00773; systemic leaves 0.
With UUAGCGUUUG (pool 0.497) the assay gave inoculated region 0.0951; leaf margin 0.0169; systemic leaves 0.00684.
With UUCGCGACCG (pool 0.301) the assay gave inoculated region 0.0826; leaf margin 0.00920; systemic leaves 0.
With UUCGCGGGUG (pool 0.209) the assay gave inoculated region 0.0951; leaf margin 0.00920; systemic leaves 0.
With UUGCCGAAGG (pool 0.170) the assay gave inoculated region 0.0652; leaf margin 0.00920; systemic leaves 0.
With UUGGCGCAUG (pool 0.275) the assay gave inoculated region 0.0596; leaf margin 0.00773; systemic leaves 0.
With UUUCCGUUGG (pool 0.248) the assay gave inoculated region 0.0777; leaf margin 0; systemic leaves 0.

The opening 2 entries, copied out:

UAAACGUGCG (pool 0.144): inoculated region 0.559; leaf margin 0.0668; systemic leaves 0.0195.
UAAUCGACGG (pool 0.327): inoculated region 0.0721; leaf margin 0; systemic leaves 0.

Reference: Wu et al. 2024, doi:10.1371/journal.ppat.1012142.